The compounds below were run on Paramyxovirus: Sendai virus. Conditions: Sendai virus in cell culture (Table 2); SI = CC50/EC50, CC50 by MTT.
Type: cell-based

Row | SMILES | SI
1 | CC(=O)Oc1ccccc1C(=O)Nc1ncc(Br)s1 [RM-4820, 2-(acetolyloxy)-N-(5-bromo-2-thiazolyl)benzamide] | 35
2 | CC(=O)Oc1ccc(C)cc1C(=O)Nc1ncc(Br)s1 [RM-4821] | >50
3 | CC(=O)Oc1cc(C)ccc1C(=O)Nc1ncc(Br)s1 [RM-4822] | 7

— patent US7285567B2, “Halogenated benzamide derivatives” (Romark Laboratories, L.C., priority 2005, dated 2007)
